Source: PMC13424409
The exact form of at least one protein or probe is not confirmed.

System: MBP-NbNTL9 + His-NbCRWN2 + His-TYLCCNV V2
Experiment: EMSA
Conditions: 20 nM probe, 1 ug NTL9 + 2 ug CRWN2 + 1-3 ug V2, V2 enhances binding, Chemiluminescent EMSA Kit (Beyotime GS009), 20 or 50 nM biotinylated probe, pH and temperature not stated, recombinant protein, label: 3' biotin

Q: Does “TAATGCTTTAGGTGGTGAAGTATAG (double strand) [Pro-PR1-1]” bind?
A: binds
